Source: PMC4703368, “A Conserved Interaction between a C-Terminal Motif in Norovirus VPg and the HEAT-1 Domain of eIF4G Is Essential for Translation Initiation” (PLoS Pathogens, 2016)
Ends that are not written are not given here. * marks the point of attachment. FITC = O=C1OC2(c3ccc(O)cc3Oc3cc(O)ccc32)c2ccc(NC(=S)*)cc21; Ahx = NCCCCCC(=O)O

T1: DAP5 HEAT-1 (61–323) (human, UniProt P78344-2 61-323)
T1 construct: also called HEAT-1 domain of DAP5; DAP5 HEAT-1 domain; source: E. coli (BL21-CodonPlus(DE3) RIPL or BL21-Rosetta(DE3)), purified
T1 sequence (looked up): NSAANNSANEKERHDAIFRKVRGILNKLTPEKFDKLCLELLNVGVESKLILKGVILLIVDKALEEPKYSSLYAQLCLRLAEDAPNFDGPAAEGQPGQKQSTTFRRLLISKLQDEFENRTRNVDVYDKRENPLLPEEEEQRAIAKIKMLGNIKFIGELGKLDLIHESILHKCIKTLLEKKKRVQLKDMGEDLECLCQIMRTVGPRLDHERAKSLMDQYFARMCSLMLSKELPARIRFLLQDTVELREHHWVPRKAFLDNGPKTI

T2: MBP tagged eIF4GII HEAT-1 (745–1003) (human, UniProt O43432-1 745-1003)
T2 chain: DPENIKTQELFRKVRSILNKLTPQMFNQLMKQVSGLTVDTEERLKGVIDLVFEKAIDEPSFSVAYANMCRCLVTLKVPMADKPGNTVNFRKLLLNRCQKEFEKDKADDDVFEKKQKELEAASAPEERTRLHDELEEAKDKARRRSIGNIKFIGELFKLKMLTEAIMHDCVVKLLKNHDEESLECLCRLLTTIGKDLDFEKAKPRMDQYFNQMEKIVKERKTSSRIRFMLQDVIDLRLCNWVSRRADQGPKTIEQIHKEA


How the values were obtained:
[1] = target: T3, untagged eIF4GII HEAT-1 (745–1003) (human, UniProt O43432-1 745-1003); assay: fluorescence polarisation; conditions: both partners purified
T3 construct: also called unlabelled eIF4GII (745–1003); eIF4GII (753–1003); source: E. coli (BL21-CodonPlus(DE3) RIPL or BL21-Rosetta(DE3)), purified

DAP5 HEAT-1 (61–323) = target: T1, DAP5 HEAT-1 (61–323); assay: fluorescence polarisation; conditions: both partners purified
[2] = target: T2, MBP tagged eIF4GII HEAT-1 (745–1003); assay: FP

Binder	Kd [1] [µM]	Kd (DAP5 HEAT-1 (61–323)) [µM]	Kd [2] [µM]
{FITC-Ahx}-VGPSWADDDRQVDYGEKINFE-OH (SMILES CC[C@H](C)[C@H](NC(=O)[C@H](CCCCN)NC(=O)[C@H](CCC(=O)O)NC(=O)CNC(=O)[C@H](Cc1ccc(O)cc1)NC(=O)[C@H](CC(=O)O)NC(=O)[C@@H](NC(=O)[C@H](CCC(N)=O)NC(=O)[C@H](CCCNC(=N)N)NC(=O)[C@H](CC(=O)O)NC(=O)[C@H](CC(=O)O)NC(=O)[C@H](CC(=O)O)NC(=O)[C@H](C)NC(=O)[C@H](Cc1c[nH]c2ccccc12)NC(=O)[C@H](CO)NC(=O)[C@@H]1CCCN1C(=O)CNC(=O)[C@@H](NC(=O)CCCCCNC(=S)Nc1ccc2c(c1)C(=O)OC21c2ccc(O)cc2Oc2cc(O)ccc21)C(C)C)C(C)C)C(=O)N[C@@H](CC(N)=O)C(=O)N[C@@H](Cc1ccccc1)C(=O)N[C@@H](CCC(=O)O)C(=O)O, source: synthetic peptide, bought: ChinaPeptides Co., Ltd) [FITC-labelled peptide MNV VPg 104–124]	2.8	20	2.9
{FITC-Ahx}-WADDDRQVDYGEKINFE (source: synthetic peptide, bought: ChinaPeptides Co., Ltd) [FITC-labelled peptide MNV VPg 108–124]	10.6	–	8.4
